Library screen at single concentrations

From ChEMBL document CHEMBL3988442, “University of Dundee, Small-Polar-MMV Screening Library” (2021).

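Whole-cell growth test on Mycobacterium tuberculosis, read after 3 days in glucose-containing 7H9 medium; the read-out is not stated. Compounds at 50 µM. Direction is inferred from retests: higher values go with more growth inhibition. Of about 69,000 compounds tested this way, about 760 (1.1%) reached 50% or more in at least one test.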

Values are the deposited “Percent Effect”, in %.
The controls that fix the scale are not given in the record; negative values are as filed.
The entries come from a sample that favours strong results.
Two or more numbers in one place are separate tests of the same structure; such repeats can differ widely.

For Cc1cnc(C(=O)N2CCCN(c3nc(C)cs3)CC2)cn1 the result was 9.398%.
For O=C(Nc1cccnc1N1CCSCC1)c1ccc2c(c1)CCC2 the result was -0.7691%.
For Cl.Nc1cccnc1N1CCCCCC1 the result was 22.83% & 23.98%.
For O=C1NCC2(CCCN(C(=O)c3csc(-c4cccs4)n3)C2)O1 (stereo not shown) the result was 26.44% & -0.2976%.
For CC(NCc1ccc(OCC(N)=O)cc1)c1ccc(Cl)cc1Cl.Cl (stereo not shown) the result was 61.98%.
For [H][C@]12CC[C@]([H])(CN(C(=O)CCc3n[nH]c4c3CCCC4)C1)N(CC1CC1)C2 the result was 52.33%.
For O=C1CC2(CCSC2)C(=O)N1Cc1ncc(-c2ccccc2)o1 (stereo not shown) the result was 31.23% & 51.15%.
For Cc1nnnn1-c1cc(NCc2cc(C#N)ccc2F)ccc1F the result was 32.63%.
For NC1(c2nc(-c3ccccc3)cc(=O)[nH]2)CCCCC1 the result was -21.3% & 1.816%.
For Cn1c(C2CC2)nc2c1CCN(CCOc1ccccc1C#N)C2 the result was -5.439%.
For COc1ccc(C2=NOC(C#N)C2)cc1 (stereo not shown) the result was 54.01%.
For O=C1NCCCCC1NS(=O)(=O)N1CCCCCC1 (stereo not shown) the result was -0.9086%.
For CCc1csc(C2CCCN(C(=O)c3ccccn3)C2)n1 (stereo not shown) the result was 3.27%.
For CCc1nnc2n1CCN(C(=O)CN(C)Cc1ccccc1)C2 the result was 0.5283%.
For Fc1ccc(-c2cnc(CN3CCCC3Cn3cccn3)o2)cc1 (stereo not shown) the result was -13.75%.
For CN(C)c1nccc(C2CCN(c3ncccn3)CC2)n1 the result was 54.57%.
For COc1ccc(CNc2nncs2)cc1F the result was 0.5535% & -29.14%.
For COCC(C)NS(=O)(=O)c1ccc(Br)cn1 (stereo not shown) the result was -9.793%.
For Cc1ccc(CN(CCCN(C)C)Cc2cnc(N(C)C)nc2)o1.O=C(O)CC(O)(CC(=O)O)C(=O)O the result was -29.93%.
For O=c1c2cc3c(cc2nnn1Cc1ccccc1)OCCO3 the result was 19.91%.
For Cc1nc(CN(C)Cc2csc(-c3cccs3)n2)co1 the result was -1.894% & -18.67%.
For OC1COCCN(Cc2cc(-c3ccccc3OC(F)(F)F)no2)C1 (stereo not shown) the result was -37.51%.
For CCn1ccc(C(=O)N(C)Cc2cnn(-c3cccc(OC)c3)c2)n1 the result was 13.03%.
For Cc1cc(N2CCCCC2)c(C#N)c(C)n1 the result was 10.47%.
For CCN1CC(COC(=O)c2cc(Br)ccc2F)CC1=O (stereo not shown) the result was 30.68%.
For CC(C)C(=O)NS(=O)(=O)CCc1ccccc1 the result was 5.527% & 11.64%.
For Cc1noc(C)c1CNC(=O)Nc1ccc(N2CCSCC2)cc1 the result was -6.531%.
For O=C1NCCCCC1SCc1coc(-c2ccccc2)n1 (stereo not shown) the result was 9.275%.
For COc1ccc(OC)c(-c2nc(CN(C)Cc3nncn3C)c(C)o2)c1 the result was -7.102% & -40.07%.
For CC(C1CC1)N(C)Cc1nnc(-c2ccc(Br)s2)o1 (stereo not shown) the result was 32.84%.
For O=C(NC1CCCN(CCCc2ccccc2)C1)C1=CCCCC1 (stereo not shown) the result was 30.89%.
For Cc1cc(CN2CCN(C(=O)NC(C)c3cccnc3)CC2)on1 (stereo not shown) the result was 13.81%.

The last 3 entries again:

{"compound": "CC(C1CC1)N(C)Cc1nnc(-c2ccc(Br)s2)o1", "stereo": "stereo not shown", "Percent Effect": 32.84}
{"compound": "O=C(NC1CCCN(CCCc2ccccc2)C1)C1=CCCCC1", "stereo": "stereo not shown", "Percent Effect": 30.89}
{"compound": "Cc1cc(CN2CCN(C(=O)NC(C)c3cccnc3)CC2)on1", "stereo": "stereo not shown", "Percent Effect": 13.81}